DMS reactivity of the HIV-1 5' RNA in monomer and dimer

Source: Ye et al. 2022 (doi:10.1038/s41594-022-00746-2), supplementary data.

Sequence of the HIV-1 NL4-3 5' RNA, positions 1 to 437, as numbered in the source:
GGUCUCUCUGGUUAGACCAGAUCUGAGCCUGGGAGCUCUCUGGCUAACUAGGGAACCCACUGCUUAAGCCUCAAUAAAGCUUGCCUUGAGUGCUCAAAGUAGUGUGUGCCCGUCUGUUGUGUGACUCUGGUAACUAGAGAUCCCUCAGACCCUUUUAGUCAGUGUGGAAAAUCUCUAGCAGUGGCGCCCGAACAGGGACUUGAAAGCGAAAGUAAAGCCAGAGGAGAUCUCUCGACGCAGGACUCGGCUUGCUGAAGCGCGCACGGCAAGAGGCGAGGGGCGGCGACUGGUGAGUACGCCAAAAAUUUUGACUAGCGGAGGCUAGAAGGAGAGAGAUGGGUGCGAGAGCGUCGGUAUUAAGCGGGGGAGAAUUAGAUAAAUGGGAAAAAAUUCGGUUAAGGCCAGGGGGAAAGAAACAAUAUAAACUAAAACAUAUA

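Mutant RNA libraries with 1G, 2G or 3G starts, with or without cap, were folded at 37 °C for 30 min. High salt was 300 mM KCl and 5 mM MgCl2, low salt 40 mM KCl and 0.1 mM MgCl2; monomer and dimer were parted on a native gel. Gel slices were treated with 170 mM dimethyl sulfate for 15 min at 37 °C and read by mutational profiling against an ethanol control.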

Values are winsor-normalised DMS reactivities of A and C; higher means more reactive, usually unpaired.
One numbering serves 1G, 2G and 3G.
A position is written with its base.

position,1G uncapped low-salt dimer,3G capped high-salt monomer,1G uncapped high-salt dimer
C63,0.03,0.64,0.04
A66,1.13,0.85,1.07
A67,0.55,0.94,0.53
C69,0.03,0.09,0.04
C70,0.03,0.05,0.04
C72,0.13,0.11,0.16
A73,0.03,0.04,0.04
A74,0.62,0.91,0.63
A76,0.27,0.28,0.26
A77,0.75,0.75,0.74
A78,0.64,0.92,0.62
C80,0.42,0.29,0.40
C84,0.74,0.21,0.73
C85,0.43,0.16,0.43
A89,0.33,0.83,0.40
C93,0.03,0.04,0.04
C95,0.59,0.44,0.55
A96,0.23,0.34,0.25
A97,0.29,0.68,0.32
A98,0.23,0.63,0.29
A101,0.13,0.30,0.15
C109,0.14,0.07,0.22
C110,0.09,0.12,0.17
C111,0.15,0.29,0.23
C114,0.22,0.18,0.26
A124,0.85,1.32,0.91
C125,0.07,0.07,0.09
C127,0.03,0.02,0.04
A132,0.53,0.53,0.55
A133,1.58,1.54,1.53
C134,0.14,0.16,0.15
A136,0.08,0.10,0.09
A138,0.10,0.11,0.11
A140,0.31,0.41,0.33
C142,0.07,0.08,0.07
C143,0.03,0.02,0.04
C144,0.03,0.02,0.04
C146,0.11,0.13,0.11
A147,0.44,0.44,0.45
A149,0.07,0.08,0.07
C150,0.04,0.05,0.04
C151,0.73,0.86,0.76
C152,0.91,0.89,0.89
A157,1.05,0.97,0.97
C160,0.03,0.06,0.05
A161,0.45,0.51,0.47
A168,0.43,0.49,0.44

Extract of 3 entries:

| position | 1G uncapped low-salt dimer | 3G capped high-salt monomer | 1G uncapped high-salt dimer |
|---|---|---|---|
| A76 | 0.27 | 0.28 | 0.26 |
| A140 | 0.31 | 0.41 | 0.33 |
| C127 | 0.03 | 0.02 | 0.04 |